Test results as given in PubChem BioAssay AID1347131 (National Center for Advancing Translational Sciences (NCATS), 2019).
Only a part is listed here, and it is no random draw. Results filed as inconclusive are left out. The source made the active and inactive calls. Calls come from the whole dose curve; tested in HEK293 reporter line.

Test: qHTS Assay for Foot and Mouth Disease Virus Antivirals: Primary Screen against the MLPCN compound library; note: nearly all actives have a fitted effect of over 55% in size
Conditions: FMDV antiviral cell-based qHTS; at 57.9 µM (top of the series)

Row | Compound | activity, negative = inhibition
1 | O=C(OCCN1CCN(CCOCc2ccccc2)CC1)C(O)(c1ccccc1)c1ccccc1 | inactive: -55%
